Record: PubChem BioAssay AID1259414 (Drosophila RNAi Screening Center, 2018)
Aim: 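Genome-wide screen for host control of endosymbiont load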 (primary screen). Cells: Drosophila JW18 cells infected with Wolbachia. Reagent: long dsRNA against Drosophila genes, 0.25 µg dsRNA per well of a 384-well plate. Timing: 5 days. Challenge: cells persistently infected with Wolbachia before knock-down; no added drug. Measured: 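Automated imaging of bacterial rRNA staining divided by host cell count, reported as plate-normalised robust z-score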. Reading the numbers: Wolbachia per cell robust z: higher = more Wolbachia per host cell than the plate typical. Active means: 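Active if absolute robust z reaches 1.5 in two or more of three replicates, leaving out multi- or no-target dsRNAs, genes unexpressed in JW18 and A1 wells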.
In all, the deposit lists about 24,000 reagents; below is an unselected part of those that have a named target and a result. Of all reagents, about 1,210 (5%) are marked active. 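Inactive calls also include excluded dsRNAs with several or no targets, genes unexpressed in JW18, and well A1, regardless of score.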 Names joined by + are all predicted targets of the reagent. No sequences are given here.

The opening 7 entries, ahead of the listing:
no.	gene	dsRNA	Wolbachia per cell robust z, rep 1	Wolbachia per cell robust z, rep 2	Wolbachia per cell robust z, rep 3	call
1	CG30050	DRSC05342	0.728	1.98	0.754	inactive
2	CG33160	DRSC08197	-2.02	-0.759	0.272	inactive
3	CG33160	DRSC26770	-0.752	-0.525	-0.396	inactive
4	CG31206	DRSC13388	-1.32	-0.101	0.674	inactive
5	RpS14b	DRSC18711	0.847	2.94	0.643	inactive
6	Drp1	DRSC00574	-2.48	0.223	-4.1	active
7	Drp1	DRSC26413	1.13	0.555	1.22	inactive

The list itself, repeating the preview:
no.	gene	dsRNA	Wolbachia per cell robust z, rep 1	Wolbachia per cell robust z, rep 2	Wolbachia per cell robust z, rep 3	call
1	CG30050	DRSC05342	0.728	1.98	0.754	inactive
2	CG33160	DRSC08197	-2.02	-0.759	0.272	inactive
3	CG33160	DRSC26770	-0.752	-0.525	-0.396	inactive
4	CG31206	DRSC13388	-1.32	-0.101	0.674	inactive
5	RpS14b	DRSC18711	0.847	2.94	0.643	inactive
6	Drp1	DRSC00574	-2.48	0.223	-4.1	active
7	Drp1	DRSC26413	1.13	0.555	1.22	inactive
8	ArfGAP1	DRSC11173	0.33	-0.558	-0.181	inactive
9	CG34451	DRSC38840	-1.21	0.6	0.365	inactive
10	18SrRNA-Psi:CR41602	DRSC37848	0.55	0.533	0.379	inactive
11	CG3817	DRSC15515	-3.13	0.906	0.487	inactive
12	CG3817	DRSC27548	-0.744	-0.787	-0.595	inactive
13	mRpL18	DRSC06142	-5.57	-0.164	0.24	inactive
14	eco	DRSC11006	1.06	1.32	-0.413	inactive
15	ppk9	DRSC04134	-3.04	-0.277	-0.00939	inactive
16	ppk9	DRSC04135	-0.452	-0.316	0.0424	inactive
17	Mov10	DRSC07012	-1.87	-0.595	1.8	inactive
18	CG8851	DRSC00718	-0.129	-4	0.706	inactive
19	CG8851	DRSC29343	0.663	-5.51	-0.791	inactive
20	CG30338	DRSC05166	-3.16	-1.54	-11.8	active
21	Mp20	DRSC07474	-0.165	0.194	-2.13	inactive
22	Mp20	DRSC29793	0.0219	0.799	-1.77	inactive
23	Srrm234	DRSC07955	0.829	-0.0961	0.666	inactive
24	Srrm234	DRSC08606	-0.33	0.329	1.32	inactive
25	Eip63F-1	DRSC08659	0.678	0.39	-0.293	inactive
26	Eip63F-1	DRSC25229	-0.598	-0.358	-0.323	inactive
27	CG15784	DRSC18090	0.127	-3.37	0.00836	inactive
28	CG15784	DRSC25383	0.661	1.64	-1.12	inactive
29	Exo70	DRSC10774	1.22	1.41	1.18	inactive
30	Prp8	DRSC07293	3.25	3.44	4.83	active
31	alphaCOP	DRSC08706	-0.0788	-0.658	1.08	inactive
32	Klc	DRSC11203	-9.13	-4.23	-1.09	active
33	Klc	DRSC26363	-0.825	-0.375	-0.89	inactive
34	trp	DRSC17088	-4.17	-0.181	0.27	inactive
35	Argk1	DRSC09668	-0.146	-6.33	-0.737	inactive
36	Argk1	DRSC10460	0.907	-2.16	1.14	inactive
37	Argk1	DRSC21558	1.14	-0.913	0.706	inactive
38	Argk1	DRSC22665	-0.287	-0.328	0.109	inactive
39	CG3345	DRSC00596	-6.96	1.68	0.449	inactive
40	wek	DRSC03561	-3.12	0.4	0.168	inactive
41	CG12814	DRSC14552	0.0738	-0.345	-0.053	inactive
42	CG12814	DRSC14553	0.455	0.183	-3.04	inactive
43	CG42699	DRSC18076	0.203	1.45	0.0178	inactive
44	CG42699	DRSC18341	1.07	0.798	1.15	inactive
45	CG42699	DRSC25221	1.23	-0.11	-0.432	inactive
46	Ndf	DRSC02775	0.637	-1.07	-0.165	inactive
47	beat-Vb	DRSC12940	0.0573	-0.491	0.0418	inactive
48	beat-Vb	DRSC14844	-1.44	-0.736	-1.42	inactive
49	beat-Vb	DRSC14845	0.198	0.616	-1.64	inactive
50	Drat	DRSC06600	0.645	-1.55	-1.28	inactive
51	mus312 + CG42307	DRSC27742	-0.581	-1.21	-0.111	inactive
52	CG32053	DRSC10683	0.722	-0.781	0.261	inactive
53	HemK1	DRSC03253	-5.99	-0.0984	-0.0267	inactive
54	CG1407	DRSC29339	-0.209	-6.57	0.219	inactive
55	Ipk2	DRSC00357	0.0426	-1.1	-0.816	inactive
56	Ipk2	DRSC24511	-0.675	-0.43	-0.483	inactive
57	CG34117	DRSC38703	-0.219	0.438	0.35	inactive
58	AANATL5	DRSC05994	-2.87	0.335	-1.94	inactive
59	CG12112	DRSC17809	0.879	0.525	-0.0837	inactive
60	CG5323	DRSC06929	-0.157	-0.317	-2.16	inactive
61	Rpn9	DRSC16840	0.318	1.26	1.28	inactive
62	Rpn9	DRSC27177	1.84	0.816	1.92	active
63	rempA	DRSC00327	-0.246	1.72	0.479	inactive
64	Pgls	DRSC19769	0.57	0.537	-1.94	inactive
65	CG5849	DRSC15893	-0.258	-0.95	-0.717	inactive
66	Swt1	DRSC20028	0.886	-6.21	0.371	inactive
67	hbt	DRSC02549	0.474	-0.304	0.347	inactive
68	hbt	DRSC25187	-0.458	0.0124	0.322	inactive
